According to patent US20090176736A1, “PHARMACEUTICAL COMPOSITION FOR CONFORMATIONAL DISEASES” (published 2009):

Tested on: 263K (prion strain of scrapie passaged through hamster)
Test: Tg7 mouse intracerebrally infected with 263K brain homogenate: incubation period
[1] = Ex 21: icv pump, 25 mg/mL, from day 2, 0.1% (W/V) homogenate

| Substance | incubation period from intracerebral infection to disease terminal stage [1] | incubation period from intracerebral infection to disease terminal stage (Ex 11: icv pump, 1.25 mg/mL, from day 3, 0.1% (W/V) 263K homogenate) |
| --- | --- | --- |
| Methylhexaose | 76.5 ± 3.5 days | – |
| Hydroxypropyl methylhexaose | 83.4 ± 4.7 days | – |
| sodium pentosan polysulfate | – | 109.0 ± 7.2 days |
